Data published in paper PMC5352689.
For some assays here: For at least one entry, the source does not settle the construct or the ends of the probe. For some assays here: Protein sequences can lack the tags named with them.

Amino acid sequences for entries named in this document (tags omitted). Residues count along the entry.
UniProt P0ACK0, 2-210: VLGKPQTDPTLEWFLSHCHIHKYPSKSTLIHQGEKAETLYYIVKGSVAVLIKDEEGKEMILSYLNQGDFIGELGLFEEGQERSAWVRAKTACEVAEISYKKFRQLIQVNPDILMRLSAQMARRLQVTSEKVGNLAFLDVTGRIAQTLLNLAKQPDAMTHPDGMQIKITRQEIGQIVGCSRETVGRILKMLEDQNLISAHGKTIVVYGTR

Key:
His6-CRP (CRP-cAMP) = His6-CRP (CRP-cAMP) (UniProt P0ACK0); experiment: DNase I footprinting; conditions: 200 uM cAMP, 20 pmol protein, 0.45 pmol DNA in 50 ul, 25-bp protection, 20 mM Tris pH 7.5, 50 mM KCl, 1 mM DTT, 10% glycerol, 20 min at room temperature, recombinant protein, residues 2-210, protein details: N-terminal His6, label: 5' 6-FAM (forward strand), probe letters rebuilt from the primers and the genome
His6-D154AFNR = molecular target: T1, His6-D154AFNR (UniProt P0A9E7); experiment: DNase I footprinting; conditions: 200 uM cAMP in buffer, 20 pmol protein, 0.45 pmol DNA in 50 ul, 70-bp protection, 20 mM Tris pH 7.5, 50 mM KCl, 1 mM DTT, 10% glycerol, 20 min at room temperature, recombinant protein, protein details: N-terminal His6, label: 5' 6-FAM (forward strand), probe letters rebuilt from the primers and the genome
T1 sequence (looked up, limits assumed): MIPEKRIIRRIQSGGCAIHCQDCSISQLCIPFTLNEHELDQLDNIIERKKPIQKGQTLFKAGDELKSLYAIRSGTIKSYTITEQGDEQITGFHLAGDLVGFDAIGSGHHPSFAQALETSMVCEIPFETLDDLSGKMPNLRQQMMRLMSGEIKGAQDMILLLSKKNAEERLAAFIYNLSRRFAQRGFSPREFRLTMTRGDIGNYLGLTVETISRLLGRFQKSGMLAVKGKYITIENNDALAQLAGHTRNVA

“TCACTTGATTGCGAGTCGCGAGTTTTCATTGTTATCCCTCTGAAGTTCGTTTTTTACCATTTAGCCATAGTAAAAACATGAATTGTTTGATTTCGCGCATATTCGCTCATAATTCGAAAGTGAAACGTGATTTCATGCGTCATTCTGAACATTTTGTAAATCTTATTTAATAATGTGTGCGGCAATTCACATTTAATTTCTGAATGTTTTCTTAACATCGCGGCAACTAAAGAAACGGCAGGTTCTCCCACTGAATCAGTCTGTTAATCATAAATAAGACCACGGGCCACGGAGGCTTTCAAAGCTTCGC (double strand) [glpT footprint probe]”: binds (His6-CRP (CRP-cAMP)); binds (His6-D154AFNR).
